PubChem BioAssay AID1259414 – Drosophila RNAi Screening Center – 2018

Assay: 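Genome-wide screen for host control of endosymbiont load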 (primary screen)
Cell system: Drosophila JW18 cells infected with Wolbachia
Reagents: long dsRNA against Drosophila genes, 0.25 µg dsRNA per well of a 384-well plate
Time to read-out: 5 days
Treatment: cells persistently infected with Wolbachia before knock-down; no added drug
Detection: 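Imaged fluorescence in situ signal for Wolbachia 23S rRNA per DAPI-counted host cell, given as a robust z-score within each plate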
Reading the numbers: Wolbachia per cell robust z: higher = more Wolbachia per host cell than the plate typical
Rule for the call: 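Hit when robust z is 1.5 or more, or -1.5 or less, in at least two of three replicates; excludes dsRNAs with several or no targets, genes not expressed in JW18 and well A1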
The deposit covers about 24,000 reagents; below is a random part of those with a known target gene and a result. In the full data, about 1,210 (5%) were called active. 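Inactive calls also include excluded dsRNAs with several or no targets, genes unexpressed in JW18, and well A1, regardless of score.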 Entries without a mark were called inactive.

For CG9717 [DRSC16543], what does the deposit list?
Wolbachia per cell robust z, rep 1: 0.431; Wolbachia per cell robust z, rep 2: 0.564; Wolbachia per cell robust z, rep 3: -0.453

For gbb [DRSC04687], what does the deposit list?
Wolbachia per cell robust z, rep 1: 0.441; Wolbachia per cell robust z, rep 2: 0.989; Wolbachia per cell robust z, rep 3: 0.444

For gbb [DRSC25717], what was measured?
Wolbachia per cell robust z, rep 1: 1.27; Wolbachia per cell robust z, rep 2: 0.991; Wolbachia per cell robust z, rep 3: 0.741

With eIF2Bgamma [DRSC07100], what does the deposit list?
Wolbachia per cell robust z, rep 1: -0.959; Wolbachia per cell robust z, rep 2: -0.295; Wolbachia per cell robust z, rep 3: -3.35

What is on record for eIF2Bgamma [DRSC29765]?
Wolbachia per cell robust z, rep 1: -2.18 (active); Wolbachia per cell robust z, rep 2: -2.11; Wolbachia per cell robust z, rep 3: -0.0853

With l(2)05714 [DRSC03118], what does the deposit list?
Wolbachia per cell robust z, rep 1: -0.145; Wolbachia per cell robust z, rep 2: 1.23; Wolbachia per cell robust z, rep 3: -0.0437

How did the screen score l(2)05714 [DRSC29829]?
Wolbachia per cell robust z, rep 1: 0.392; Wolbachia per cell robust z, rep 2: 0.437; Wolbachia per cell robust z, rep 3: 0.86

With RFeSP [DRSC00702], what was measured?
Wolbachia per cell robust z, rep 1: 0.475; Wolbachia per cell robust z, rep 2: 0.0937; Wolbachia per cell robust z, rep 3: -1.41

For RFeSP [DRSC27607], what does the deposit list?
Wolbachia per cell robust z, rep 1: -0.567; Wolbachia per cell robust z, rep 2: -0.404; Wolbachia per cell robust z, rep 3: 0.541

What is on record for Jon44E [DRSC07216]?
Wolbachia per cell robust z, rep 1: 0.227; Wolbachia per cell robust z, rep 2: 0.435; Wolbachia per cell robust z, rep 3: 1.04

What is on record for Jon44E [DRSC25190]?
Wolbachia per cell robust z, rep 1: 0.206; Wolbachia per cell robust z, rep 2: -1.03; Wolbachia per cell robust z, rep 3: -1.5

How did the screen score Zmynd10 [DRSC09826]?
Wolbachia per cell robust z, rep 1: 0.65 (active); Wolbachia per cell robust z, rep 2: 1.88; Wolbachia per cell robust z, rep 3: 2.31

How did the screen score Zmynd10 [DRSC28996]?
Wolbachia per cell robust z, rep 1: 0.167; Wolbachia per cell robust z, rep 2: -0.977; Wolbachia per cell robust z, rep 3: 0.874

With Zmynd10 [DRSC39051], what was measured?
Wolbachia per cell robust z, rep 1: 0.499; Wolbachia per cell robust z, rep 2: -0.381; Wolbachia per cell robust z, rep 3: 0.139

With CG34450 [DRSC17822], what was measured?
Wolbachia per cell robust z, rep 1: 0.463; Wolbachia per cell robust z, rep 2: -0.466; Wolbachia per cell robust z, rep 3: 1.07

Which result is listed for CG34450 [DRSC25085]?
Wolbachia per cell robust z, rep 1: 1.14; Wolbachia per cell robust z, rep 2: 0.729; Wolbachia per cell robust z, rep 3: -1.14

A few values from the list.
Under “Wolbachia per cell robust z, rep 1”, RFeSP [DRSC27607] is entered as -0.567
Entry for Zmynd10 [DRSC09826] in “Wolbachia per cell robust z, rep 2”: 1.88 (active)
